Anti-infective test results gathered from many reports (values: NIAID ChemDB through PubChem).

Common to all: whole-cell or culture tests; organism: Cryptococcus neoformans; read-out: MIC

Conditions beyond the fields shown may differ between rows. An empty or dashed field is not shown.

SMILES | strain | result
COc1ccc2c(c1)C(=O)/C(=C/c1ccc3c(c1)CC3)CO2 | 93/V | 25 µg/mL
Cc1cc(NS(=O)(=O)c2ccc(N)cc2)no1 | IFM 40215 | 32 µg/mL
COc1cc(O)c2c(c1)C(=O)c1c(cc3c(c1O)-c1c(cc(C)c(C(=O)NCC(=O)O)c1O)[C@H](OC1OC(C)C(N(C)C)C(OC4OCC(O)C(O)C4O)C1O)[C@H]3O)C2=O | CS-01 | 3.1 µg/mL
COc1nc2c(c(-c3ccc(C)cc3)c1C#N)CSc1ccccc1-2 | 93/V | 12.5 µg/mL
CCC(C)n1ncn(-c2ccc(N3CCN(c4ccc(OC[C@H]5CO[C@](Cn6cncn6)(c6ccc(Cl)cc6Cl)O5)cc4)CC3)cc2)c1=O | A26037 | 0.008 µg/mL
COc1ccc(NS(=O)(=O)c2ccc(N)cc2)nn1 | IFM 49722 | ≥256 µg/mL
COc1ccc(-c2c(C#N)c(OC)nc3c2CSc2ccc(OC)cc2-3)cc1 | 25 | 50 µg/mL
C[C@@H](n1ncn(-c2ccc(OCC(F)(F)C(F)F)cc2)c1=O)[C@](O)(Cn1cncn1)c1ccc(F)cc1F | DUMC 133.95 | 0.5 µg/mL
CC[C@H]1/C=C(\C)[C@H](O)[C@H](C)C[C@H](OC)[C@H]2O[C@@](O)(C(=O)C(=O)N3CCCC[C@H]3C(=O)O[C@H](/C(C)=C/[C@@H]3CC[C@@H](O)[C@H](OC)C3)[C@H](C)[C@@H](O)CC1=O)[C@H](C)C[C@@H]2OC | C20F2 | 100 µg/mL
CC[C@@H]([C@H](C)O)n1ncn(-c2ccc(N3CCN(c4ccc(OC[C@@H]5CO[C@@](Cn6cncn6)(c6ccc(F)cc6F)C5)cc4)CC3)cc2)c1=O | DUMC 133.95 | 0.25 µg/mL
CCCCCOc1ccc(-c2cc(-c3ccc(C(=O)N[C@H]4C[C@@H](O)[C@@H](O)NC(=O)[C@@H]5[C@@H](O)[C@@H](C)CN5C(=O)[C@H]([C@H](O)CC(N)=O)NC(=O)[C@H]([C@H](O)[C@@H](O)c5ccc(O)c(OS(=O)(=O)O)c5)NC(=O)[C@@H]5C[C@@H](O)CN5C(=O)[C@H]([C@@H](C)O)NC4=O)cc3)no2)cc1 | FMR 8409 | 64 µg/mL
Cc1cc(NS(=O)(=O)c2ccc(N)cc2)nc(C)n1 | IFM 49722 | ≥256 µg/mL
COc1ccc(C2C(C#N)=C(N)OC3=C2CSc2ccccc23)cc1OC | 25 | 12.5 µg/mL
COC1CC2CCC(C)C(O)(O2)C(O)C(O)N2CCCCC2C(=O)OC(C(C)CC2CCC(O)C(OC)C2)CC(=O)C(C)/C=C(\C)C(O)C(OC)C(=O)C(C)CC(C)/C=C/C=C/C=C/1C | TOR1-1 | >100 µg/mL
COc1cccc(-c2sc3ccccc3c2CO)c1O | Isolate 25 | 50 µg/mL
COc1ccc2c(c1)C(=O)/C(=C/c1ccc(OC)c(OC)c1)CO2 | 93/V | 1.5 µg/mL
N#CC1=C(N)OC2=C(CSc3ccc(Cl)cc32)C1c1ccc2c(c1)OCO2 | 93/V | 12.5 µg/mL
Cc1ccc(/C=C2\CSc3ccccc3C2=O)cc1 | Farwania | 100 µg/mL
N#CC1=C(N)OC2=C(CSc3ccc(Cl)cc32)C1c1cccc2ccccc12 | 93/V | 50 µg/mL
Cc1nnc(NS(=O)(=O)c2ccc(N)cc2)s1 | IFM 51976 | ≥256 µg/mL
OCC1c2ccccc2SC1c1ccccc1O | Isolate 25 | 6 µg/mL
Clc1ccc(C(CCc2ccccc2)Cn2ccnc2)c(Cl)c1 |  | <1 µg/mL
N#CC1=C(N)OC2=C(CSc3ccccc32)C1c1cccc2ccccc12 | 25 | 12.5 µg/mL
Clc1ccc(CC(Cn2ccnc2)c2c(Cl)cccc2Cl)c(Cl)c1 |  | 10 µg/mL
COc1ccc(/C=C2\CCc3ccccc3C2=O)cc1 | 25 | 100 µg/mL
C[C@@H]([C@@](O)(Cn1cncn1)c1ccc(F)cc1F)S(C)(=O)=O | R717 (AZOLE-R) | >1000 µM
O=C1/C(=C/c2ccccc2O)COc2ccccc21 | 93/V | 25 µg/mL
C[C@@H](n1cnc2cc(Cl)ccc2c1=O)[C@](O)(Cn1cncn1)c1ccc(F)cc1F | Isolate 133.95 | 0.078 µg/mL
OCC1c2ccccc2SC1c1cc(Br)ccc1O | 93/V | 50 µg/mL
O[C@](Cn1cncn1)(Cn1cnc(/C=C/c2ccc(OCC(F)(F)C(F)F)cc2)n1)c1ccc(F)cc1F | TIMM0362 | 0.2 µg/mL
COc1ccc2c(c1)C1=C(CS2)C(c2ccc3c(c2)OCO3)C(C#N)=C(N)O1 | 93/V | 6 µg/mL
Cc1ccc(/C=C2\CCc3ccccc3C2=O)cc1 | 93/V | 25 µg/mL
COC1CC2CCC(C)C(O)(O2)C(=O)C(=O)N2CCCCC2C(=O)OC(C(C)CC2CCC(O)C(OC)C2)CC(=O)C(C)/C=C(\C)[C@@](O)(c2ccc(C)s2)C(OC)C(=O)C(C)CC(C)/C=C/C=C/C=C/1C | WILD TYPE | >100 µg/mL
Clc1ccc(C(Cc2c(Cl)cccc2Cl)Cn2ccnc2)c(Cl)c1 |  | <1 µg/mL
COc1ccccc1/C=C1\CSc2ccccc2C1=O | Farwania | 25 µg/mL
COc1ccc(-c2sc3ccccc3c2CO)c(O)c1 | Farwania | 50 µg/mL
O=C1/C(=C/c2ccc3c(c2)OCO3)CSc2ccc(Cl)cc21 | 25 | 12.5 µg/mL
Clc1ccc(CC(Cn2ccnc2)c2ccc(Cl)cc2Cl)cc1 |  | <1 µg/mL
OCC1c2ccccc2SC1c1ccc(O)cc1O | 93/V | 50 µg/mL
Cc1ccc(/C=C2\COc3ccccc3C2=O)cc1 | 93/V | 25 µg/mL